Results of unrelated studies side by side (data: NIAID ChemDB).

Shared fields: growth or infection tests; agent: Mycobacterium avium; read-out: MIC

Blank or dashed fields: not listed here. Two numbers with a dash give a range or band. Rows are shuffled and stem from different studies.

compound,strain,read by,conditions,value
CCCCCCCCCCCCS(=O)(=O)C[C@@H]1N[C@H](CO)[C@@H](O)[C@@H]1O,3 to 5 strains,-,-,32–128 µg/mL
CCOc1c(N2CCC(C(C)(C)N)C2)c(F)cc2c(=O)c(C(=O)O)cn(C3CC3)c12,1915112,-,-,≤4 µg/mL
CC1(C)[C@@H](Br)CC[C@]2(C)O[C@H]3COC(=O)C3=C[C@@H](O)[C@@H]12,ATCC 25291,-,-,>128 µg/mL
COc1cc(/C=C/C=O)ccc1O,ATCC 25291,-,-,128 µg/mL
CCc1cc(C(N)=S)ccn1,1435,-,-,>8 µg/mL
O=C(Nc1ccc(Br)cc1)c1cc(Cl)ccc1OP(=O)(Oc1ccccc1)Oc1ccccc1,MY330/88,-,14 d,16 µM
CCCCCCCCCCCCCCCCCCC(CC)C(=O)O,-,-,-,>2000 µM
O=C1c2ccccc2OP(=O)(c2ccccc2)N1c1ccccc1,MY330/88,-,14 d,>500 µM
NC(=S)c1cc(SCc2cccc3ccccc23)ccn1,MY330/88,-,-,>32 µM
CN[C@@H]1[C@H](O[C@H]2[C@H](O[C@H]3[C@H](O)[C@@H](O)[C@H](N=C(N)N)[C@@H](O)[C@@H]3N=C(N)N)O[C@@H](C)[C@]2(O)C=O)O[C@@H](CO)[C@H](O)[C@H]1O,ATCC 15769,-,-,0.69 µM
O=C(Nc1ccc(C(F)(F)F)cc1)c1cc(Cl)ccc1OP(=O)(c1ccccc1)c1ccccc1,MY330/88,-,14 d,8 µM
CO[C@H]1/C=C/O[C@@]2(C)Oc3c(C)c(O)c4c(=O)c(c5oc6cc(N7CCN(CC(C)C)CC7)cc(=O)c6nc5c4c3=C2O)NC(=O)/C(C)=C\C=C\[C@H](C)[C@H](O)[C@@H](C)[C@@H](O)[C@@H](C)[C@H](OC(C)=O)[C@@H]1C,453,-,-,0.031 µg/mL
CC1(C)[C@@H](Br)CC[C@]2(C)O[C@H]3COC(=O)C3=CC[C@@H]12,ATCC 25291,-,-,>128 µg/mL
c1ccc(CSc2nc3ccccc3o2)nc1,MY330/88,-,-,125 µM
N[C@H]1CCN(c2nc3c(cc2F)c(=O)c(C(=O)O)cn3C2CC2)C1,II,-,-,32 µg/mL
CC(C)(C)c1cnc(C(=O)/C=C/c2ccc(F)cc2)cn1,Chester,absorbance,-,>25 µg/mL
CCN1CC(c2ccccc2)NC(C#N)=C1C#N,-,broth dilution / visual reading,-,1.5 µg/mL
CC(C)(C)c1cnc(C(=O)/C=C/c2ccccc2F)cn1,Chester,absorbance,-,>100 µg/mL
CNc1ccc2oc(C[C@@H]3OC4(CC[C@@H]3C)O[C@H](C(C)C(=O)c3ccc[nH]3)[C@H](C)C[C@H]4C)nc2c1C(=O)O,Vet 1387,resazurin,-,12.5 µg/mL
CC(C)(C)n1cc(C(=O)O)c(=O)c2cc(F)c(N3CCNCC3)nc21,1915112,-,-,4 µg/mL
CC[C@H]1OC(=O)[C@H](C)[C@@H](O[C@H]2C[C@@](C)(OC)[C@@H](O)[C@H](C)O2)[C@H](C)[C@@H](O[C@@H]2O[C@H](C)C[C@H](N(C)C)[C@H]2O)[C@](C)(OC)C[C@@H](C)C(=O)[C@H](C)[C@@H](O)[C@]1(C)O,RG3,-,-,0.12 µg/mL
COC(=O)c1cccc2c(=O)c3ccccc3oc12,SN 304,-,-,>32 µg/mL
N#Cc1cc(SCc2ccccn2)ccn1,MY330/88,-,-,62.5 µM
CCC(C(=O)O)c1ccccc1,-,-,-,>2000 µM
CCN1CC(c2ccsc2)NC(C#N)=C1C#N,-,broth dilution / visual reading,-,12.5 µg/mL
N#Cc1cccc2oc3ccccc3c(=O)c12,SN 304,-,-,>16 µg/mL
NC1CCN(c2c(F)cc3c(=O)c(C(=O)O)cn(C4CC4)c3c2Cl)C1,I,-,-,2 µg/mL
NC(=O)c1ccc2c(=O)c3ccccc3oc2c1,SN 304,-,-,>16 µg/mL
CCN1CC(c2ccsc2)=NC(C#N)=C1C#N,-,broth dilution / visual reading,-,6.2 µg/mL
CC[C@H]1OC(=O)[C@H](C)[C@@H](O[C@H]2C[C@@](C)(OC)[C@@H](O)[C@H](C)O2)[C@H](C)[C@@H](O[C@@H]2O[C@H](C)C[C@H](N(C)C)[C@H]2O)[C@](C)(OC)C[C@@H](C)C(=O)[C@H](C)[C@@H](O)[C@]1(C)O,ATCC 25291,-,-,2 µg/mL
O=C(O)c1cn(C2CC2)c2c(F)c(N3CCN4CCC3C4)c(F)cc2c1=O,1915112,-,-,≤4 µg/mL
O=C1c2cc(Br)ccc2OP(=O)(c2ccccc2)N1c1ccc(C(F)(F)F)cc1,MY330/88,-,14 d,8 µM
N#Cc1cc(SCc2ccncc2)ccn1,MY330/88,-,-,1000 µM
NCC[C@H](O)C(=O)N[C@@H]1C[C@H](N)[C@@H](O[C@H]2O[C@H](CN)[C@@H](O)[C@H](O)[C@H]2O)[C@H](O)[C@H]1O[C@H]1O[C@H](CO)[C@@H](O)[C@H](N)[C@H]1O,A5,-,-,2 µg/mL
CC(C)N=c1cc2n(-c3ccc(Cl)cc3)c3ccccc3nc-2cc1Nc1ccc(Cl)cc1,3011-C clarithromycin-resistant,-,-,0.12 µg/mL
CC[C@@H](CO)NCCN[C@@H](CC)CO,N-444,broth dilution,-,16 µg/mL
CC12CCC(C3=C(C1=O)[Se](=O)C1=C(O3)C3CCC(C)(C1=O)C3(C)C)C2(C)C,-,-,-,33.98 µg/mL
CO[C@H]1/C=C/O[C@@]2(C)Oc3c(C)c(O)c4c(O)c(c5c(c4c3C2=O)NC2(CCN(CC(C)C)CC2)N=5)=NC(=O)/C(C)=C\C=C\[C@H](C)[C@H](O)[C@@H](C)[C@@H](O)[C@@H](C)[C@H](OC(C)=O)[C@@H]1C,Isolate 90-0969,-,-,>1 µg/mL
CCN1C(C#N)=C(C#N)N=C(c2ccsc2)C1/C=C/c1ccc(-c2ccccc2)cc1,-,broth dilution / visual reading,-,12.5 µg/mL
O=C(/C=C/c1ccc(Cl)cc1)c1cnccn1,Chester,absorbance,-,100 µg/mL
Cc1c(F)c(N2CCNC(C)C2)c(C(F)(F)F)c2c1c(=O)c(C(=O)O)cn2C1CC1,1915112,-,-,8 µg/mL
c1cncc(CSc2nc3ccccc3[nH]2)c1,MY330/88,-,-,1000 µM
CC1(C)CC(=NO)C2[Se]ON=C2C1,-,-,-,8.47 µg/mL
O=C(O)c1cn(C2CC2)c2c(F)c(N3CCN4CCC3C4)c(F)cc2c1=O,RG2,-,-,1 µg/mL
CC[C@@H](CO)NCCN[C@@H](CC)CO,ATCC 25291,-,-,16 µg/mL
O=C(O)c1cn(C2CC2)c2c(F)c(N3CCNCC3)c(F)cc2c1=O,TMC 1403,-,-,≤0.25 µg/mL
C[C@H]1COc2c(N3CCN(C)CC3)c(F)cc3c(=O)c(C(=O)O)cn1c23,N-444,broth dilution,-,16 µg/mL
O=C(/C=C/c1ccccc1F)c1cnccn1,Chester,absorbance,-,100 µg/mL
CCn1cc(C(=O)O)c(=O)c2cc(F)c(N3CCC(CNCCO)C3)c(F)c21,PI2/8,-,-,0.25 µg/mL
CO[C@H]1/C=C/O[C@@]2(C)Oc3c(C)c(O)c4c(O)c(c(/C=N/N5CCN(C)CC5)c(O)c4c3C2=O)NC(=O)/C(C)=C\C=C\[C@H](C)[C@H](O)[C@@H](C)[C@@H](O)[C@@H](C)[C@H](OC(C)=O)[C@@H]1C,6-28,-,-,10 µg/mL
NNC(=O)c1ccncc1,Chester,absorbance,-,3.13–6.25 µg/mL
CCN1C(C#N)=C(C#N)N=C(c2ccsc2)[C@@H]1/C=C/c1ccccc1,-,broth dilution / visual reading,-,12.5 µg/mL
CCCc1cnc(C(=O)/C=C/c2ccccc2Br)cn1,Chester,absorbance,-,>100 µg/mL
[C-]#[N+][C@@]1(C)C2CC[C@H]3[C@H]4[C@H](CC[C@]3(C)[N+]#[C-])[C@@H](C)C[C@@H](CC1(C)C)[C@H]24,ATCC 25291,-,-,8 µg/mL
CC(C)CCC[C@H](C)CC(=O)O,-,-,-,>2000 µM
O=C(O)c1cn(C2CC2)c2c(F)c(N3CCC(N4CCCC4)C3)c(F)cc2c1=O,PI4/44,-,-,2 µg/mL
O=C(O)c1cccc2oc3ccccc3c(=O)c12,SN 304,-,-,>32 µg/mL
c1cncc(-c2ncc(-c3ccc4c(c3)OCO4)o2)c1,Isolate 733 HIV-positive,-,-,25 µg/mL
CCCc1cnc(C(=O)/C=C/c2ccc(Cl)cc2)cn1,Chester,absorbance,-,12.5 µg/mL
C=C[C@](C)(Cl)[C@@H](Br)/C=C/[C@](C)(Cl)CBr,ATCC 25291,-,-,>128 µg/mL
CC[C@H]1OC(=O)[C@H](C)[C@@H](O[C@H]2C[C@@](C)(OC)[C@@H](O)[C@H](C)O2)[C@H](C)[C@@H](O[C@@H]2O[C@H](C)C[C@H](N(C)C)[C@H]2O)[C@](C)(OC)C[C@@H](C)C(=O)[C@H](C)[C@@H](O)[C@]1(C)O,A5,-,-,0.25 µg/mL
CCNC(C)C1CCN(c2c(F)cc3c(=O)c(C(=O)O)cn(C4CC4)c3c2OC)C1,PI4/44,-,-,1 µg/mL
O=C(Nc1ccc(C(F)(F)F)cc1)c1cc(Br)ccc1OP(=O)(c1ccccc1)c1ccccc1,MY330/88,-,7 d,8 µM
CC[C@@H](CO)NC[C@@H]1O[C@H](CO)[C@@H](O)[C@@H]1O,3 to 5 strains,-,-,>128 µg/mL
CC(N)C1CCN(c2nc3c(cc2F)c(=O)c(C(=O)O)cn3C2CC2)C1,PI4/44,-,-,16 µg/mL
CCCCCCCCCCCCS(=O)C[C@@H]1N[C@H](CO)[C@@H](O)[C@@H]1O,3 to 5 strains,-,-,32–64 µg/mL
CCCc1cnc(C(=O)/C=C/c2ccccc2F)cn1,Chester,absorbance,-,>100 µg/mL
CC1CN(c2cc3c(cc2F)c(=O)c(C(=O)O)cn3-c2ccc(F)cc2F)CCN1,ATCC 25291,-,-,32 µg/mL
O=C(O)c1cn(C2CC2)c2cc(N3CCNCC3)c(F)cc2c1=O,1915112,-,-,≤4 µg/mL
CCN1CC(c2ccccc2)=NC(C#N)=C1C#N,-,broth dilution / visual reading,-,12.5 µg/mL
O=C(O)c1cccc2c(=O)c3ccccc3oc12,SN 304,-,-,>32 µg/mL
CC(C)Cc1cnc(C(=O)/C=C/c2ccc(Br)cc2)cn1,Chester,absorbance,-,>100 µg/mL
CO[C@H]1/C=C/O[C@@]2(C)Oc3c(C)c(O)c4c(O)c(c(/C=N/N5CCN(C)CC5)c(O)c4c3C2=O)NC(=O)/C(C)=C\C=C\[C@H](C)[C@H](O)[C@@H](C)[C@@H](O)[C@@H](C)[C@H](OC(C)=O)[C@@H]1C,3090-C clarithromycin-resistant,-,-,2 µg/mL
O=C(O)c1ccc2c(=O)c3cc([N+](=O)[O-])ccc3oc2c1,SN 304,-,-,>32 µg/mL
CC1CN(c2c(F)c(N)c3c(=O)c(C(=O)O)cn(C4CC4)c3c2F)CCN1C,LR114R,-,-,0.06 µg/mL
O=C(O)c1ccc2c(=O)c3ccccc3oc2c1C(=O)O,SN 304,-,-,>32 µg/mL
CCN1C(C#N)=C(C#N)N=C(c2cccs2)[C@H]1/C=C/c1ccccc1,-,broth dilution / visual reading,-,12.5 µg/mL
CCC(CO)NC[C@H]1N[C@@H](CO)[C@@H](O)[C@@H]1O,3 to 5 strains,-,-,>128 µg/mL
Cc1ccc2nc(SCc3ccccn3)[nH]c2c1,MY330/88,-,-,250 µM
COC(=O)c1cccc2oc3ccccc3c(=O)c12,SN 304,-,-,>32 µg/mL
CCN1C(C#N)=C(C#N)N=C(c2ccccc2)[C@H]1/C=C/c1ccccc1,-,broth dilution / visual reading,-,12.5 µg/mL
CC[C@H]1OC(=O)[C@H](C)[C@@H](O[C@H]2C[C@@](C)(OC)[C@@H](O)[C@H](C)O2)[C@H](C)[C@@H](O[C@@H]2O[C@H](C)C[C@H](N(C)C)[C@H]2O)[C@](C)(OC)C[C@@H](C)C(=O)[C@H](C)[C@@H](O)[C@]1(C)O,3090,broth dilution / radiometric,pH 7.4,0.5 µg/mL

The last 12 rows once more:

compound | strain | read by | conditions | value
O=C(O)c1cccc2c(=O)c3ccccc3oc12 | SN 304 | - | - | >32 µg/mL
CC(C)Cc1cnc(C(=O)/C=C/c2ccc(Br)cc2)cn1 | Chester | absorbance | - | >100 µg/mL
CO[C@H]1/C=C/O[C@@]2(C)Oc3c(C)c(O)c4c(O)c(c(/C=N/N5CCN(C)CC5)c(O)c4c3C2=O)NC(=O)/C(C)=C\C=C\[C@H](C)[C@H](O)[C@@H](C)[C@@H](O)[C@@H](C)[C@H](OC(C)=O)[C@@H]1C | 3090-C clarithromycin-resistant | - | - | 2 µg/mL
O=C(O)c1ccc2c(=O)c3cc([N+](=O)[O-])ccc3oc2c1 | SN 304 | - | - | >32 µg/mL
CC1CN(c2c(F)c(N)c3c(=O)c(C(=O)O)cn(C4CC4)c3c2F)CCN1C | LR114R | - | - | 0.06 µg/mL
O=C(O)c1ccc2c(=O)c3ccccc3oc2c1C(=O)O | SN 304 | - | - | >32 µg/mL
CCN1C(C#N)=C(C#N)N=C(c2cccs2)[C@H]1/C=C/c1ccccc1 | - | broth dilution / visual reading | - | 12.5 µg/mL
CCC(CO)NC[C@H]1N[C@@H](CO)[C@@H](O)[C@@H]1O | 3 to 5 strains | - | - | >128 µg/mL
Cc1ccc2nc(SCc3ccccn3)[nH]c2c1 | MY330/88 | - | - | 250 µM
COC(=O)c1cccc2oc3ccccc3c(=O)c12 | SN 304 | - | - | >32 µg/mL
CCN1C(C#N)=C(C#N)N=C(c2ccccc2)[C@H]1/C=C/c1ccccc1 | - | broth dilution / visual reading | - | 12.5 µg/mL
CC[C@H]1OC(=O)[C@H](C)[C@@H](O[C@H]2C[C@@](C)(OC)[C@@H](O)[C@H](C)O2)[C@H](C)[C@@H](O[C@@H]2O[C@H](C)C[C@H](N(C)C)[C@H]2O)[C@](C)(OC)C[C@@H](C)C(=O)[C@H](C)[C@@H](O)[C@]1(C)O | 3090 | broth dilution / radiometric | pH 7.4 | 0.5 µg/mL